Measured values from several laboratories, pooled; numbers as filed in NIAID ChemDB.

Shared fields: growth or infection tests; agent: HIV-1; read by: p24; endpoint: inhibition

Lines come from different laboratories, so protocols vary. Blank or dashed fields: not listed here. Inhibition is in % at the dose shown (toxicity tests: loss of growth or viability).

smiles	cell line	strain	dose	value
O=C(O)C[C@@H]1C(=O)O[C@H]2[C@@H]3OC(=O)c4cc(O)c(O)c(O)c4-c4c(cc(O)c(O)c4O)C(=O)OC[C@H]2O[C@@H](OC(=O)c2cc(O)c(O)c(O)c2)[C@@H]3OC(=O)c2cc(O)c(O)c3c2[C@H]1[C@H](O)C(=O)O3	H9	IIIB	5 µg/mL	80%
O=C(CCCCCCCCCCC(=O)Nc1cc(S(=O)(=O)O)cc2cc(S(=O)(=O)O)cc(O)c12)Nc1cc(S(=O)(=O)O)cc2cc(S(=O)(=O)O)cc(O)c12	H9	-	20 µg/mL	94%
Nc1ncnc2c1ncn2C1OC(CO)CC1OP(=O)(O)OCC1CC(OP(=O)(O)OCC2OC(n3cnc4c(N)ncnc43)C(O)C2O)C(n2cnc3c(N)ncnc32)O1	H9	IIIB	1 µM	5%
Nc1ccc(S(=O)(=O)N(CC2CCCC2)C[C@@H](O)[C@H](Cc2ccccc2)NC(=O)O[C@H]2CCOC2)cc1N	CEM	IIIB	0.1 µM	90%
O=C(O)C1=C[C@@H](OC(=O)c2cc(O)c(O)c(O)c2)[C@@H](OC(=O)c2cc(O)c(O)c(O)c2)[C@H](OC(=O)c2cc(O)c(O)c(O)c2)C1	H9	IIIB	30 µM	73%
N[C@H]1CONC1=O	CEM	N1T	10 µg/mL	85%
O=C(Nc1ncc([N+](=O)[O-])s1)c1ccccc1O	PBMC	BaL	10 µg/mL	87.8%
CO[C@H]1C[C@@H]2CC[C@@H](C)[C@@](O)(O2)C(=O)C(=O)N2CCCC[C@H]2C(=O)O[C@H]([C@H](C)C[C@@H]2CC[C@@H](O)[C@H](OC)C2)CC(=O)[C@H](C)/C=C(\C)[C@@H](O)[C@@H](OC)C(=O)[C@H](C)C[C@H](C)/C=C/C=C/C=C/1C	PBMC	IIIB X4	0.01 µM	13.5%
NCCSSCCN	Macrophage	BaL	10 µM	37%
NS(=O)(=O)c1ccc(NC(=O)c2ccccc2SSc2ccccc2C(=O)Nc2ccc(S(N)(=O)=O)cc2)cc1	CEM + CEM-SS	RF	25 µM	80%
CC(=O)N1CCC(C(=O)N(CCCN2CCC(Cc3ccc(C(N)=O)cc3)CC2)c2ccc(C)c(Cl)c2)CC1	PBMC	HTN Clinical isolates	0.015 µM	90%
Nc1ncnc2c1ncn2[C@@H]1O[C@H](COP(=O)([O-])O[C@@H]2C[C@@H](COP(=O)([O-])O[C@@H]3C[C@@H](COP(=O)([O-])O)O[C@H]3n3cnc4c(N)ncnc43)O[C@H]2n2cnc3c(N)ncnc32)C[C@H]1O	H9	IIIB	1 µM	90%
CN1C(C(=O)Nc2ccccn2)=C(O)c2ccccc2S1(=O)=O	Jurkat cells	MN	50 µM	0%
Nc1ccc(S(=O)(=O)O)c2cccc(O)c12	H9	-	10 µg/mL	17%
Nc1ncnc2c1ncn2COCCOP(=O)([O-])O[C@@H]1[C@H](O)[C@@H](COP(=O)([O-])O[C@@H]2[C@H](O)[C@@H](COP(=O)([O-])O[C@@H]3[C@H](O)[C@@H](CO)O[C@H]3n3cnc4c(NCc5ccccc5)ncnc43)O[C@H]2n2cnc3c(N)ncnc32)O[C@H]1n1cnc2c(N)ncnc21	SupT1 + Sup-T1	-	100 µM	87%
Nc1ncnc2c1ncn2[C@@H]1O[C@H](COP(=O)([O-])O)[C@@H](O)[C@H]1OP(=O)([O-])OC[C@@H]1C[C@@H](OP(=O)([O-])OC[C@@H]2C[C@@H](O)[C@H](n3cnc4c(N)ncnc43)O2)[C@H](n2cnc3c(N)ncnc32)O1	H9	IIIB	1 µM	55%
Nc1ncnc2c1ncn2COCCOP(=O)(O)O[C@@H]1C[C@@H](COP(=O)(O)O[C@@H]2C[C@@H](COP(=O)(O)O[C@@H]3C[C@@H](CO)O[C@H]3n3cnc4c(NCc5ccccc5)ncnc43)O[C@H]2n2cnc3c(N)ncnc32)O[C@H]1n1cnc2c(N)ncnc21	SupT1 + Sup-T1	-	100 µM	51%
O=C1OCC2OC(O)C(O)C(O)C2OC(=O)c2cc(O)c(O)c(O)c2-c2c(O)c(O)c3oc(=O)c4c(c(O)c(O)c5oc(=O)c2c3c54)-c2c1cc(O)c(O)c2O	H9	IIIB	20 µg/mL	75%
O=C(O[C@@H]1[C@H](O)C[C@@](OC(=O)c2cc(O)c(O)c(O)c2)(C(=O)O)C[C@H]1OC(=O)c1cc(O)c(O)c(O)c1)c1cc(O)c(O)c(O)c1	H9	IIIB	40 µM	78%
O=C(O)C[C@H]1C(=O)O[C@H]2[C@H](OC(=O)c3cc(O)c(O)c(O)c3)[C@@H](OC(=O)c3cc(O)c(O)c4c3[C@H]1[C@H](O)C(=O)O4)[C@H](OC(=O)c1cc(O)c(O)c(O)c1)O[C@@H]2COC(=O)c1cc(O)c(O)c(O)c1	H9	IIIB	20 µg/mL	90%
CC(=O)N(O)CCCCCNC(=O)CCC(=O)N(O)CCCCCNC(=O)CCC(=O)N(O)CCCCCN	H9	IIIB	20 µM	70%
O=C1OC(C2OC(=O)c3cc(O)c(O)c(O)c3-c3c(O)c(O)c4oc(=O)c5c(c(O)c(O)c6oc(=O)c3c4c65)-c3c(cc(O)c(O)c3O)C(=O)OCC2O)C2OC(=O)c3c(c(O)c(O)c(O)c3C2O)-c2c1cc(O)c(O)c2O	H9	IIIB	5 µM	71%
Cc1ccc(-c2ccc3c(c2)C=C(C(=O)Nc2ccc(C[N+](C)(C)C4CCOCC4)cc2)CCC3)cc1	PBMC	Du204 CLADE C	1 µM	97.6%
COc1cc(NC(C)CCCNCc2cc(Nc3ccnc4cc(Cl)ccc34)cc(CN3CCCC3)c2O)c2ncccc2c1	MT-2	-	1.36 µM	0%
CC(=O)CCC(=O)NCCCOCCOCCCNC(=O)CNC(=O)[C@H](CS)NC(=O)[C@@H](NC(=O)[C@@H](NC(=O)[C@H](CO)NC(=O)[C@@H](N)CS)C(C)C)[C@@H](C)O	PBMC(PHA STIM.) + PBMC	BaL	0.132 µM	32%
O=C(Nc1ccc(Cl)cc1)Nc1ccc(Nc2ccnc3cc(Cl)ccc23)cc1	MT-2	-	2.36 µM	40%
O=C(O)C[C@H]1C(=O)O[C@H]2[C@H](OC(=O)c3cc(O)c(O)c(O)c3)[C@@H](OC(=O)c3cc(O)c(O)c4c3[C@H]1[C@H](O)C(=O)O4)[C@H](OC(=O)c1cc(O)c(O)c(O)c1)O[C@@H]2COC(=O)c1cc(O)c(O)c(O)c1	H9	IIIB	1 µM	53%
CN(C)CCCNC(=O)CCNC(=O)c1cc(NC(=O)c2nc(NC(=O)CCNC(=O)c3cc(NC(=O)c4nc(NC(=O)CCCNC(=O)c5cc(NC(=O)c6nc(NC(=O)CCNC(=O)c7cc(NC(=O)c8nccn8C)cn7C)cn6C)cn5C)cn4C)cn3C)cn2C)cn1C	PBMC	WEAU 1.6	1 µM	80%
Cc1cn([C@H]2C=C[C@@H](COC(=O)[C@@H](N)Cc3c[nH]c4ccccc34)O2)c(=O)[nH]c1=O	MT-4	-	0.1 µg/mL	100%
O=C1O[C@@H]2[C@@H](OC(=O)c3cc(O)c(O)c(O)c3-c3c1cc(O)c(O)c3O)[C@@H](O)O[C@@H]1COC(=O)c3cc(O)c(O)c(O)c3-c3c(O)c(O)c4oc(=O)c5c(c(O)c(O)c6oc(=O)c3c4c65)-c3c(cc(O)c(O)c3O)C(=O)O[C@@H]21	H9	IIIB	20 µg/mL	70%
Cc1cc2ccccc2c(-c2ccc3c4c(ccnc24)CCO3)c1[C@H](OC(C)(C)C)C(=O)O	PBMC	HXB2	0.016 µM	95%
Nc1ncnc2c1ncn2[C@@H]1O[C@H](COP(=O)([O-])O)[C@@H](O)[C@H]1OP(=O)([O-])OC[C@H]1O[C@@H](n2cnc3c(N)ncnc32)[C@H](OP(=O)([O-])OC[C@@H]2C[C@@H](O)[C@H](n3cnc4c(N)ncnc43)O2)[C@@H]1O	H9	IIIB	1 µM	10%
N[C@@H](CCC(=O)O)C(=O)N[C@@H](Cc1c[nH]c2ccccc12)C(=O)O	MT-4	-	50 µg/mL	100%
NCCSSCCN	PBL	IIIB	100 µM	75%
Nc1nc(NC2CC2)c2ncn([C@H]3C=C[C@@H](CO)C3)c2n1	PBMC	MSO Clinical isolate	0.25 µM	59%
O=C(O)C1=C[C@@H](OC(=O)c2cc(O)c(O)c(O)c2)[C@@H](OC(=O)c2cc(O)c(O)c(O)c2)[C@H](OC(=O)c2cc(O)c(O)c(O)c2)C1	H9	IIIB	5 µg/mL	60%